Earlier results on one substance are cited in patent US4868157A, “Dipeptidyl 2-amino-1,2-dideoxy-D-glucose derivatives as host resistance enhancers in AIDS-immunocompromised hosts and methods of use” (priority 1987, dated 1989).

The data set concerns AIDS-related virus.

For the substance “Interleukin-2: Protein made by white blood cells that mediates production of interferon”, the “therapeutic benefit / clinical improvement in AIDS patients” value is reported as “not encouraging”.
